Results of unrelated studies side by side (data: NIAID ChemDB).

Shared fields: growth or infection tests; agent: Mycobacterium avium; read-out: MIC

Rows are shuffled and stem from different studies.

{"compound": "c1cncc(-c2ncc(-c3ccc4c(c3)OCO4)o2)c1", "strain": "Isolate 733 HIV-positive", "result": "50 µg/mL"}
{"compound": "O=c1[nH]c2ccccc2c(=O)n1-c1cccc([N+](=O)[O-])c1", "strain": "MY330/88", "result": ">125 µM"}
{"compound": "O=C(O)c1cn(C2CC2)c2c(F)c(N3CCC(N4CCCC4)C3)c(F)cc2c1=O", "strain": "PI4/44", "result": "2 µg/mL"}
{"compound": "O=C1C=CC(=O)c2c(O)ccc(O)c21", "strain": "MAC104", "result": "6.25 µg/mL"}
{"compound": "C=C[C@](C)(Cl)[C@@H](Br)/C=C/[C@](C)(Cl)CBr", "strain": "ATCC 25291", "result": ">128 µg/mL"}
{"compound": "CC(N)C1CCN(c2nc3c(cc2F)c(=O)c(C(=O)O)cn3C2CC2)C1", "strain": "PI2/8", "result": "0.12 µg/mL"}
{"compound": "CO[C@H]1/C=C/O[C@@]2(C)Oc3c(C)c(O)c4c(O)c(c5c(c4c3C2=O)NC2(CCN(CC(C)C)CC2)N=5)=NC(=O)/C(C)=C\\C=C\\[C@H](C)[C@H](O)[C@@H](C)[C@@H](O)[C@@H](C)[C@H](OC(C)=O)[C@@H]1C", "strain": "Isolate 91-0129", "result": "0.8 µg/mL"}
{"compound": "CCn1cc(C(=O)O)c(=O)c2ccc(N3CC(O)C(O)C(O)C3)nc21", "strain": "PI12/39", "result": ">32 µg/mL"}
{"compound": "CCOC(=O)N1CCN(c2ccc(C3CC(c4ccc([N+](=O)[O-])o4)=NO3)cc2)CC1", "strain": "ATCC 25291", "result": "100 µg/mL"}
{"compound": "CCn1cc(C(=O)O)c(=O)c2cc(F)c(N3CCS(=O)CC3)c(F)c21", "strain": "PI12/39", "result": "0.25 µg/mL"}
{"compound": "CC[C@H]1OC(=O)[C@H](C)[C@@H](O[C@H]2C[C@@](C)(OC)[C@@H](O)[C@H](C)O2)[C@H](C)[C@@H](O[C@@H]2O[C@H](C)C[C@H](N(C)C)[C@H]2O)[C@](C)(OC)C[C@@H](C)C(=O)[C@H](C)[C@@H](O)[C@]1(C)O", "strain": "ATCC 25291", "result": "2 µg/mL"}
{"compound": "CCNC(C)C1CCN(c2c(F)cc3c(=O)c(C(=O)O)cn(C4CC4)c3c2OC)C1", "strain": "PI4/44", "result": "1 µg/mL"}
{"compound": "Nc1ccccc1C(=O)Nc1ccc(F)cc1", "strain": "MY330/88", "result": ">250 µM"}
{"compound": "CO[C@H]1/C=C/O[C@@]2(C)Oc3c(C)c(O)c4c(=O)c(c5oc6cc(N7CCN(CC(C)C)CC7)cc(=O)c6nc5c4c3=C2O)NC(=O)/C(C)=C\\C=C\\[C@H](C)[C@H](O)[C@@H](C)[C@@H](O)[C@@H](C)[C@H](OC(C)=O)[C@@H]1C", "strain": "3354", "result": "0.016 µg/mL"}
{"compound": "O=c1oc2ccccc2c(=O)n1-c1ccccc1", "strain": "MY330/88", "result": "125 µM"}
{"compound": "O=C(NCc1ccc(N2CCN(Cc3ccccc3)CC2)cc1)c1ccc([N+](=O)[O-])o1", "strain": "ATCC 25291", "result": "200 µg/mL"}
{"compound": "O=c1oc2ccccc2c(=O)n1-c1cccc(Cl)c1", "strain": "MY330/88", "result": "31 µM"}
{"compound": "C[C@@H]1CN(c2c(F)c(N)c3c(=O)c(C(=O)O)cn(C4CC4)c3c2F)C[C@H](C)N1", "strain": "II", "result": "32 µg/mL"}
{"compound": "Nc1ccccc1C(=O)Nc1cccc([N+](=O)[O-])c1", "strain": "MY330/88", "result": ">250 µM"}
{"compound": "CC(C)=CCC1=C(O)c2ccccc2C(=O)C1=O", "strain": "MAC104", "result": "100 µg/mL"}
{"compound": "O=C(Nc1ccc(F)cc1)c1ccccc1O", "strain": "MY330/88", "result": "62 µM"}
{"compound": "[C-]#[N+][C@@]1(C)CC[C@H]2[C@H]3[C@@H](C(=C)CC[C@@H]31)[C@H](C=C(C)C)C[C@@H]2C", "strain": "ATCC 25291", "result": "32 µg/mL"}
{"compound": "COc1ccc(-c2cn(C)cc2[N+](=O)[O-])c(Cl)c1", "strain": "CIP103317", "result": "16 µg/mL"}
{"compound": "CCCCCCCC/C=C\\CCCCCCCC(=O)O", "result": "2000 µM"}
{"compound": "NC1CCN(c2c(F)cc3c(=O)c(C(=O)O)cn(C4CC4)c3c2Cl)C1", "strain": "I", "result": "2 µg/mL"}
{"compound": "O=C1C=CC(=O)c2ccccc21", "strain": "MAC104", "result": "100 µg/mL"}
{"compound": "CC[C@@H]1C(=O)OC[C@@H]1Cc1cncn1C", "strain": "Isolate 733 HIV-positive", "result": ">100 µg/mL"}
{"compound": "CN1CCN(c2cc3c(cc2F)c(=O)c(C(=O)O)cn3-c2ccc(F)cc2)CC1", "strain": "ATCC 25291", "result": ">64 µg/mL"}
{"compound": "O=C(Nc1ccc(Br)cc1)c1ccccc1O", "strain": "MY330/88", "result": "31 µM"}
{"compound": "Cc1ccc([C@]2(C)CC[C@@H]3C[C@@]32C)c(O)c1", "strain": "ATCC 25291", "result": ">128 µg/mL"}
{"compound": "CC[C@H]1OC(=O)[C@H](C)[C@@H](O[C@H]2C[C@@](C)(OC)[C@@H](O)[C@H](C)O2)[C@H](C)[C@@H](O[C@@H]2O[C@H](C)C[C@H](N(C)C)[C@H]2O)[C@](C)(OC)C[C@@H](C)C(=O)[C@H](C)[C@@H](O)[C@]1(C)O", "strain": "SMD", "result": "0.12 µg/mL"}
{"compound": "C[C@H](CCC(=O)O)[C@H]1CC[C@H]2[C@@H]3CC[C@@H]4C[C@H](O)CC[C@]4(C)[C@H]3C[C@H](O)[C@]12C", "result": ">2000 µM"}
{"compound": "S=C(N=Nc1ccccc1)NNc1ccccc1", "strain": "MAC104", "result": "400 µg/mL"}
{"compound": "C/C=C1/CN2[C@H]3C[C@@H]1[C@@H](CO)[C@@H]2Cc1c3[nH]c2ccc(OC)cc12", "strain": "Isolate 733 HIV-positive", "result": ">200 µg/mL"}
{"compound": "CC1=CC(=O)c2c(O)cccc2C1=O", "strain": "MAC104", "result": "12.5 µg/mL"}
{"compound": "CC[C@@H](CO)NCCN[C@@H](CC)CO", "strain": "ATCC 25291", "result": "16 µg/mL"}
{"compound": "C=C1C2CC[C@H](C=O)C(O)(C=O)[C@@]2(C)CC[C@@H]1C", "strain": "Isolate 733 HIV-positive", "result": ">100 µg/mL"}
{"compound": "Cc1c(F)c(N2CCNC(C)C2)c(C(F)(F)F)c2c1c(=O)c(C(=O)O)cn2C1CC1", "strain": "PI2/8", "result": "0.25 µg/mL"}
{"compound": "O=C(O)c1cn(C2CC2)c2c(F)c(N3CCN4CCC3C4)c(F)cc2c1=O", "strain": "101", "result": "2 µg/mL"}
{"compound": "CCCCCCCCCCCCC(C(=O)O)c1ccccc1", "result": "1000 µM"}
{"compound": "C=C[C@@](C)(Cl)[C@@H](Br)/C=C/[C@](C)(Cl)CBr", "strain": "ATCC 25291", "result": ">128 µg/mL"}
{"compound": "CC1CN(c2c(F)c(N)c3c(=O)c(C(=O)O)cn(C4CC4)c3c2F)CCN1C", "strain": "PI4/44", "result": "0.25 µg/mL"}
{"compound": "O=C(Nc1ccc([N+](=O)[O-])cc1)c1ccccc1O", "strain": "MY330/88", "result": "31 µM"}
{"compound": "CC(C)(O)C1=CC[C@@]2(C)C[C@@H]3O[C@]3(C)CC[C@@H]3O[C@@]3(C)CC[C@H]12", "strain": "ATCC 25291", "result": ">128 µg/mL"}